For the test, the target named is peptide having the sequence of SEQ ID NO: 2 (conserved Aspergillus species hsp90 epitope) (A. fumigatus and A. niger (conserved in …)). The experiment in a line: not described.

From US20080095778A1 (NEUTEC PHARMA, published 2008) come the findings set out here.

B1: Mycograb® antibody (scFv)
scFv: HMAEVQLVESGAEVKKPGESLRISCKGSGCIISSYWISWVRQMPGKGLEWMGKIDPGDSYINYSPSFQGHVTISADKSINTAYLQWNSLKASDTAMYYCARGGRDFGDSFDYWGQGTLVTVSSGGGGSGGGGSGGGGSDVVMTQSPSFLSAFVGDRITITCRASSGISRYLAWYQQAPGKAPKLLIYAASTLQTGVPSRFSGSGSGTEFTLTINSLQPEDFATYYCQHLNSYPLTFGGGTKVDIKRAA
notes: also called Mycograb (RTM) antibody
For the molecule B1, the binding result is “binds”.
